For 2 substances, Km results are on record in article PMC6208970, “Linking cytochrome P450 enzymes from Mycobacterium tuberculosis to their cognate ferredoxin partners” (Applied Microbiology and Biotechnology, 2018).

Common to all, as to experiment: purified protein
For data set [1], the system named is NC(=O)C1=CN([C@@H]2O[C@H](COP(=O)(O)OP(=O)(O)OC[C@H]3O[C@@H](n4cnc5c(N)ncnc54)[C@H](OP(=O)(O)O)[C@@H]3O)[C@@H](O)[C@H]2O)C=CC1. The note with it: pH 7.4; varied: cofactor.
Data set [2] relates to NC(=O)C1=CN([C@@H]2O[C@H](COP(=O)(O)OP(=O)(O)OC[C@H]3O[C@@H](n4cnc5c(N)ncnc54)[C@H](O)[C@@H]3O)[C@@H](O)[C@H]2O)C=CC1. As to conditions: pH 7.4; varied: cofactor.
The subject of data set [3] is O=C1C(Cl)=CC(=Nc2ccc(O)cc2)C=C1Cl. The note with it: pH 7.4.

Consider FprA (Mycobacterium tuberculosis H37Rv), for which the Km – broadly, the substrate concentration at which the rate is half of its maximum – in data set [1] was determined as 1.2 µM; in data set [2] it was 85 ± 1 µM.

Take FdrA (Mycobacterium tuberculosis H37Rv): the Michaelis-Menten constant (Km) in data set [3] came to 24 ± 1 µM; in data set [2] it was 92 µM.
